Experimental data as given in US20100069468.
The exact form of at least one protein or probe is not confirmed. Where cells or extracts were used, other partners may take part.

System: muscle-type nicotinic acetylcholine receptor
Test: activity in cells
Conditions: apparent KI; whole-cell current, cell-flow, 100 uM carbamoylcholine, 22 C, -60 mV, pH 7.4; protein on the cell surface; protein details: expressed on BC3H1 cells

Q: For “UUUACCGUAAGGCCUGUCUUCGUUUGACAGCGGCUUGUUGACCCUCACACUUUGUACCUGCUGCCAA [B55]”, which Ki is on record?
A: Its Ki is 1200 nM.
